Experimental data reported in US20160303056A1, “FASTING MIMICKING DIET (FMD) AND GLUCOSE LOWERING DRUGS PROTECT NORMAL CELLS AND GENERATE CANCER SENSITIZING CONDITIONS IN RESPONSE TO STANDARD AND HIGH GLUCOSE CONDITIONS INDUCED BY RAPAMYCIN AND DEXAMETHASONE” (UNIVERSITY OF SOUTHERN CALIFORNIA, priority 2015, published 2016).

Columns and labels:
[1] = Circulating glucose levels in mice given rapamycin or dexamethasone, with or without insulin, STS or FMD; assay type: in vivo, mouse (C57BL/6); settings: mice on Rapa or Dexa; insulin every 12 h for 48 h, or FMD, before DXR (FIG. 1B)
C57BL/6 mice = settings: mouse, in vivo

insulin
reduction of glucose levels / hyperglycemic state induced by rapamycin and dexamethasone [1]: significantly reduced | reversal of the sensitizing effect of rapamycin/dexamethasone (C57BL/6 mice): partially reversed | toxicity of doxorubicin (C57BL/6 mice): can reverse the toxicity of doxorubicin
